{"source": "paper PMC5648786", "about": "“Characterization of a dual function macrocyclase enables design and use of efficient macrocyclization substrates” (Nature Communications, 2017)", "molecular_target": "T1, GmPOPB-H698A (Galerina marginata, UniProt H2E7Q8 1-730, H698A)", "T1 sequence": "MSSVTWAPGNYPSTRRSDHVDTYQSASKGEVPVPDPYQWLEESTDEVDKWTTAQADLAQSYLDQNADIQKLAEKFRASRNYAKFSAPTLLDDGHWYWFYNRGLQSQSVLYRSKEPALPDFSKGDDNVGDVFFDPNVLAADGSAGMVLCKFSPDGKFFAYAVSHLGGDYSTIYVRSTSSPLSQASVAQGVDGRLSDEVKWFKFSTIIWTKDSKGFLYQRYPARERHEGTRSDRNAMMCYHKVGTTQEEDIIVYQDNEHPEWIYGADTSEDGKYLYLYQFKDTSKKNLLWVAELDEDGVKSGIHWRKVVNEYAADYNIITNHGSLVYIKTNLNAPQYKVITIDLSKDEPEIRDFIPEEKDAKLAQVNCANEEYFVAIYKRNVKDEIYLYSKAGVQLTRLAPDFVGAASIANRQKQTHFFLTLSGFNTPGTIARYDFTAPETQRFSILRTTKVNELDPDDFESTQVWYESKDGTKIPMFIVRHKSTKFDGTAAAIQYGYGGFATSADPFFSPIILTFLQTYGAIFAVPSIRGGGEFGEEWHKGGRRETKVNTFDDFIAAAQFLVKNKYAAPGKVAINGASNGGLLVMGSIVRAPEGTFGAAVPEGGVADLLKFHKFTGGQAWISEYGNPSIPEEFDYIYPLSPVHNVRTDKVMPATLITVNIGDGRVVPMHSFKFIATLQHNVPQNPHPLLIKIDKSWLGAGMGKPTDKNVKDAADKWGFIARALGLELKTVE", "assay": "ITC", "details": "both partners purified"}
{"binder": "IWGIGCNPWTAEHVDQTLASGNDIC (also called 25mer peptide)", "note": "[25mer substrate (core, linker and recognition tail)]", "values": [{"measurement": "Kd", "result": 47, "unit": "nM"}]}
